Anti-infective test results gathered from many reports (values: NIAID ChemDB through PubChem).

Common to all: toxicity to cultured cells; cells: MT-2; read-out: CC50

Two numbers with a dash give a range or band.

structure | read by | value
Nc1cccc(CN2C(=O)N(Cc3cccc(C(=O)Nc4cnccn4)c3)[C@H](Cc3ccccc3)[C@H](O)[C@@H](O)[C@H]2Cc2ccccc2)c1 |  | >50 µM
Cc1cn([C@H]2C[C@H](N=[N+]=[N-])[C@@H](CO)O2)c(=O)[nH]c1=O |  | 20 µM
N#CCNC(=O)c1cccc(CN2C(=O)N(Cc3cccc(C(=O)NCC(=O)O)c3)[C@H](Cc3ccccc3)[C@H](O)[C@@H](O)[C@H]2Cc2ccccc2)c1 |  | >50 µM
Nc1nc(N)c2ncn([C@H]3CO[C@@H](CO)O3)c2n1 |  | >1000 µM
CN1CC=C(CC2(CC3=CCN(C)CC3)c3ccccc3-c3ccccc32)CC1 |  | >130 µM
Nc1nc2c(ncn2[C@H]2C=C[C@@H](CO)O2)c(=O)[nH]1 |  | 16 µM
CN1CC=C(CC2C(=O)N(c3ccccc3)c3ccccc32)CC1 |  | >141 µM
Cc1cn([C@H]2C[C@H](N=[N+]=[N-])[C@@H](CO)O2)c(=O)[nH]c1=O |  | 109.4 µM
Nc1nc(N)c2ncn([C@H]3CO[C@@H](CO)O3)c2n1 |  | >>100 µM
COc1cccc(CN2C(=O)N(Cc3cccc(C(=O)Nc4ccccn4)c3)[C@H](Cc3ccccc3)[C@H](O)[C@@H](O)[C@H]2Cc2ccccc2)c1 |  | >50 µM
CC(=O)Oc1ccc(/C=C/C(=O)O[C@@H](C(=O)O)[C@@H](OC(=O)/C=C/c2ccc(OC(C)=O)c(OC(C)=O)c2)C(=O)O)cc1OC(C)=O | neutral red | >18.6 µM
COc1ccc(S(=O)(=O)N(CC(C)C)C[C@@H](O)[C@H](Cc2ccc(F)cc2)NC(=O)O[C@H]2CCO[C@H]3OCC[C@H]32)cc1 | MTT | 24 µM
CCN(CC)C(=O)[C@H](Cc1ccc(O)c(O)c1)[C@@H](Cc1ccc(O)c(O)c1)C(=O)O | neutral red | >93 µM
Nc1ccn([C@H]2CC[C@@H](CO)O2)c(=O)n1 |  | 400 µM
COC(=O)[C@H](C)NP(=O)(OC[C@H]1C/C1=C/n1cnc2c(N)nc(N)nc21)Oc1ccccc1 |  | 21 µM
COC(=O)C(=O)OC1(C(=O)O)C[C@@H](OC(=O)/C=C/c2ccc(O)c(O)c2)C(O)[C@H](OC(=O)/C=C/c2ccc(O)c(O)c2)C1 |  | >350 µg/mL
O=C(/C=C/c1ccc(O)c(O)c1)NCC(NC(=O)/C=C/c1ccc(O)c(O)c1)C(=O)O | neutral red | >35 µM
COC(=O)[C@H](C)NP(=O)(OC[C@H]1C/C1=C\n1cnc2c(N)nc(N)nc21)Oc1ccccc1 |  | 44 µM
Nc1ccn([C@H]2CC[C@@H](CO)O2)c(=O)n1 |  | 32 µM
O=C1c2c(O)ccc(O)c2C(=O)c2c(NCCNCCO)ccc(NCCNCCO)c21 | ATP | 25–50 µM
CN1CCCC(CCC2(CCC3CCCN(C)C3)C(=O)N(c3ccccc3)c3ccccc32)C1 |  | 41 µM
Nc1nc(NC2CC2)c2ncn([C@H]3C=C[C@@H](CO)C3)c2n1 |  | 55 µM
Cc1ccc(NC(=O)c2cccc(CN3C(=O)N(Cc4cccc(C(=O)Nc5ccc(C)cn5)c4)[C@H](Cc4ccccc4)[C@H](O)[C@@H](O)[C@H]3Cc3ccccc3)c2)nc1 |  | >50 µM
Nc1nc(NC2CC2)c2ncn([C@H]3C=C[C@@H](CO)C3)c2n1 |  | 52 µM
Nc1ncnc2c1ncn2[C@@H]1O[C@H](OCP(=O)(O)O)C=C1F |  | >1000 µM
O=C(Nc1cnccn1)c1cccc(CN2C(=O)N(Cc3cccc(C(=O)Nc4cnccn4)c3)[C@H](Cc3ccccc3)[C@H](O)[C@@H](O)[C@H]2Cc2ccccc2)c1 |  | >50 µM
C[C@H](Cn1cnc2c(N)ncnc21)OCP(=O)(O)O |  | >1000 µM
COC(=O)N[C@H](C(=O)N[C@@H](Cc1ccccc1)[C@@H](O)CN(Cc1ccc(-c2ccccn2)cc1)NC(=O)[C@@H](NC(=O)OC)C(C)(C)C)C(C)(C)C | MTT | 27.6 µM
Nc1ncnc2c1ncn2[C@H]1C=C[C@@H](OCP(=O)(O)O)O1 |  | >1000 µM
O=C(O)C1(O)C[C@@H](O)C(O)[C@H](O)C1 |  | >625 µg/mL
Nc1ccn([C@H]2CC[C@@H](CO)O2)c(=O)n1 |  | >10 µg/mL
COC(=O)[C@H](C)NP(=O)(OCC1C/C1=C/n1cnc2c(N)ncnc21)Oc1ccccc1 |  | 0.24 µM
COc1ccc(S(=O)(=O)N(CC(C)C)C[C@@H](O)[C@H](Cc2cc(F)cc(F)c2)NC(=O)O[C@H]2CO[C@H]3OCC[C@H]32)cc1 | MTT | 29.5 µM
CC(C)CN(C[C@@H](O)[C@H](Cc1cc(F)cc(F)c1)NC(=O)O[C@H]1CCO[C@H]2OCC[C@H]21)S(=O)(=O)c1ccc2nc(NC(C)C)sc2c1 | MTT | 2.7 µM
O=c1[nH]cnc2c1ncn2[C@H]1CC[C@@H](CO)O1 |  | >1000 µM
COc1cccc(CN2C(=O)N(Cc3cccc(C(=O)Nc4cnccn4)c3)[C@H](Cc3ccccc3)[C@H](O)[C@@H](O)[C@H]2Cc2ccccc2)c1 |  | >50 µM
CN1CC=C(CC2(Cc3ccccc3)C(=O)N(c3ccccc3)c3ccccc32)CC1 |  | 61 µM
Nc1nc(=O)n([C@@H]2CS[C@H](CO)O2)cc1F |  | >1000 µM
CC(C)CN(C[C@@H](O)[C@H](Cc1ccc(F)cc1)NC(=O)O[C@H]1CCO[C@H]2OCC[C@H]21)S(=O)(=O)c1ccc2nc(NC(C)C)sc2c1 | MTT | 2.7 µM
Nc1cccc(CN2C(=O)N(Cc3cccc(C(=O)Nc4nc5ccccc5[nH]4)c3)[C@H](Cc3ccccc3)[C@H](O)[C@@H](O)[C@H]2Cc2ccccc2)c1 |  | >50 µM
Cc1cn([C@H]2C=C[C@@H](CO)O2)c(=O)[nH]c1=O |  | >100 µM
Nc1ccc(CC2(Cc3ccncc3)C(=O)N(c3ccccc3)c3ccccc32)cc1 |  | 55 µM
O=C(Nc1ccccn1)c1cccc(CN2C(=O)N(Cc3cccc(C(=O)Nc4ccccn4)c3)[C@H](Cc3ccccc3)[C@H](O)[C@@H](O)[C@H]2Cc2ccccc2)c1 |  | >50 µM
CN1CCC(CC2(CC3CCN(C)CC3)c3ccccc3-c3ccccc32)CC1 |  | 87 µM
NC(=O)[C@H](Cc1ccc(O)c(O)c1)[C@@H](Cc1ccc(O)c(O)c1)C(=O)O | neutral red | >123 µM
CC(C)(C)NC(=O)[C@@H]1C[C@@H]2CCCC[C@@H]2CN1C[C@@H](O)[C@H](Cc1ccccc1)NC(=O)[C@H](CC(N)=O)NC(=O)c1ccc2ccccc2n1 |  | >10 µM
COc1cc(CN2C(=O)N(Cc3cccc(C(=O)Nc4ccccn4)c3)[C@H](Cc3ccccc3)[C@H](O)[C@@H](O)[C@H]2Cc2ccccc2)cc(OC)c1 |  | >50 µM

A second listing of 2 rows from above:

| structure | read by | value |
|---|---|---|
| COC(=O)[C@H](C)NP(=O)(OCC1C/C1=C/n1cnc2c(N)ncnc21)Oc1ccccc1 |  | 0.24 µM |
| COc1cccc(CN2C(=O)N(Cc3cccc(C(=O)Nc4cnccn4)c3)[C@H](Cc3ccccc3)[C@H](O)[C@@H](O)[C@H]2Cc2ccccc2)c1 |  | >50 µM |

Rows are shuffled and stem from different studies. CCn is the concentration with n% toxicity to the cells. An empty or dashed field is not shown.